Results on six compounds are retold here after patent publication US7888363B2, “Viral polymerase inhibitors” (Boehringer Ingelheim International GmbH, priority 2003, dated 2011).

Chains of the proteins cited; added tags and fusions are not shown. Residues count along the entry.
UniProt P26663, 2420-3010 limits assumed: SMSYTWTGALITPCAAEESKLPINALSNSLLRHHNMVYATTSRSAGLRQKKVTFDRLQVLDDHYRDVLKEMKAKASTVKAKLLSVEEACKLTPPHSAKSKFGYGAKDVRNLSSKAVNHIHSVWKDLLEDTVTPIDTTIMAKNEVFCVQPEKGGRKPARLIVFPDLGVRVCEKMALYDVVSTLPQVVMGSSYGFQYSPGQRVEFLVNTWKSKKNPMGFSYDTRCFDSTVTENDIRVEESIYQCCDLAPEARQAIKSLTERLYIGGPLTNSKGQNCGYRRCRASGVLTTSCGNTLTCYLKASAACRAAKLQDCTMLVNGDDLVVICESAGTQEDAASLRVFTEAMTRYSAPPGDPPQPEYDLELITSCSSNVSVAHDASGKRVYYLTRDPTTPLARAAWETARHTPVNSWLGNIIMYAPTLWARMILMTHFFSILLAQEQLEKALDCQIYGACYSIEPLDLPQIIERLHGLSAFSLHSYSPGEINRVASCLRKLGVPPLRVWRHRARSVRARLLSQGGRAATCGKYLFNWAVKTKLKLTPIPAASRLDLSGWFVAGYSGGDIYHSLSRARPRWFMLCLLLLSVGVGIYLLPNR

The match of structure and compound is tentative.

For this experiment, the target named is hepatitis C virus RNA dependant polymerase (NS5B) (Hepatitis C virus genotype 1b, UniProt P26663). Kind of experiment: Inhibition of NS5B RNA dependent RNA polymerase activity. In kind it is biochemical. The method, then: A suitable assay is described in the examples.
Inhibition of NS5B RNA Dependent RNA Polymerase Activity
The compounds of the invention were tested for inhibitory activity against the hepatitis C virus RNA dependant polymerase (NS5B), according to protocol described in WO 03/010141

`COC(=O)[C@]1(NC(=O)c2ccc3c(C4CCCCC4)c(-c4ccoc4)n(CC(=O)N4CCOCC4)c3c2)CCNC1` showed an IC50 (Table 4, class ranges) of 200 to 1000 nM.
In turn, `O=C(NCc1ccccc1Sc1ccccc1CO)c1ccc2c(c1)c(C1CCCCC1)c(-c1ccoc1)n2CC(=O)N1CCC(N2CCCC2)CC1` registered an IC50 (Table 7, class ranges) of 1000 to 10000 nM.
`O=C(O)c1ccc2c(C3CCCCC3)c(-c3ccoc3)n(CC(=O)N3CCCCC3)c2c1`: the concentration for half-maximal inhibition (IC50) (Table 1, HCV NS5B polymerase) is less than 200 nM.
The compound `COc1ccc(OC)c(S(=O)(=O)NC(=O)c2ccc3c(C4CCCCC4)c(-c4ccoc4)n(CC(=O)N4CCOCC4)c3c2)c1` returned an IC50 (Table 2, HCV NS5B polymerase) of less than 200 nM.
Same read-out and setting: the result for `CCOc1ccc2nc(S(=O)(=O)NC(=O)c3ccc4c(C5CCCCC5)c(-c5ccoc5)n(CC(=O)N5CCOCC5)c4c3)sc2c1` reads less than 200 nM.
Consider `O=C(O)c1ccc2c(C3CCCC3)c(-c3ccoc3)n(CC(=O)N3CCOCC3)c2c1`, for which the IC50 (Table 1, HCV NS5B polymerase) was less than 200 nM.
